Experimental data as given in patent US9078928B2, “Conjugated molecules comprising a peptide derived from the CD4 receptor coupled to a polyanionic polypeptide for the treatment of AIDS” (Institut Pasteur, priority 2011, dated 2015).

Tests used:
gp120 MN (X4) = target: T1, gp120 MN (X4) (Human immunodeficiency virus type 1 group M subtype B, UniProt P05877); type: binding, HIV; conditions: heparin-coated surface (FIG. 5F)
T1 construct: Two different gp120 were used, originating from a type X4 isolate (gp120 MN)
Protocol: (§1) Two different gp120 were used, originating from a type X4 isolate (gp120 MN) and a type R5 isolate (gp120 YU2). The capacity of different molecules to inhibit gp120 interactions with various receptors or co-receptors is measured by surface plasmonic resonance (Biacore).
In another set of experiments, heparin is coated on the surface, and gp120 alone (grey line) or pre-incubated with the compounds to be tested are injected onto these surfaces (FIG. 5F). The interaction signal between gp120 and heparin is measured as a function of time.

SHIVsf162p3 = type: cell-based; conditions: TZN-bl cells, Luc signal after 48 h
Protocol: TZN-bl cells that express Luceriferase under the control of the HIV LTR were used. These cells express high levels of CD4 and CCR5 and can be easily infected with HIV-1/-2 and SIV. Upon infection of these cells, viral Tat will induce transcription of Luciferase. The Luc signal is proportional to the amount of infection. We add a serial dilution of the compound to be tested (mCD4, mCD4-HS12 or mCD4-P3YSO3) to cells and subsequently add virus. The obtained Luc signal is read out after 48 h.
The test was carried out in duplicate.

gp120 YU2 (R5) = target: T2, gp120 YU2 (R5) (Human immunodeficiency virus type 1 group M subtype B, UniProt P35961); assay: Biacore (SPR): gp120 YU2 / mAb17b interaction; type: binding, HIV; conditions: for mAb17b binding to gp120 YU2(R5)-coated surface pretreated with the compound: 100 nM compound, mAb17b 15 μg/ml (FIG. 5A-C); for binding of gp120 YU2 in complex with the compound to mAb17b-coated surface: mAb17b-coated surface (FIG. 5G)
T2 construct: Two different gp120 were used
Protocol: as §1
To do this, proteins (in this case gp120 envelop proteins) can be immobilized on the surface of a biosensor (Sensorchip CM 4 Biacore) in accordance with the described procedure (Vives et al. J. Biol. Chem. 279, 54327-54333, 2005).
The interaction signal between gp120 and mAb17b is measured as a function of time.

X4-tropic HIV-1-LAI = assay: Antiviral assay in PHA-P-activated PBMC, RT activity in supernatant at day 7 (Example 3); type: cell-based; conditions: mean of triplicate; for ED70 VIH-1-LAI(X4) Average: effective dose to inhibit 70% of HIV-1 replication; for ED90 VIH-1-LAI(X4) Average: effective dose to inhibit 90% of HIV-1 replication
Protocol: The antiviral experiment have been performed as described in WO/2009/098147 and Nature Chemical Biology, 2009, 5(10), 743-748.
Briefly, the X4-tropic HIV-1-LAI (Barre-Sinoussi, Science 220, 868-71, 1983) or the R5-tropic HIV-1/Ba-L (Gartner et al, Science 233, 215-9, 1986) strains were amplified and titrated in vitro on Phytohemaglutinin-P (PHA-P)-activated peripheral blood mononuclear cells (PBMC). Tissue culture infectious doses were calculated using Kärber's formula (Kärber, Arch. Exp. Path. Pharmak. 162, 480-483, 1931). For the antiviral assay, PHA-P-activated PBMC were pre-treated for 30 minutes with six concentrations of each drug (1:5 dilutions between 0.5 μM and 160 pM) and infected with one hundred 50% tissue culture infectious doses (TCID50) of either the X4-tropic LAI or R5-tropic Ba-L strain. Drugs were maintained throughout the culture, and cell supernatants were collected at day 7 post-infection and stored at −20° C. Azidothymidine (AZT) was used in these experiments as an internal control. Viral replication was measured by quantifying reverse transcriptase (RT) activity in cell culture supernatants using the RetroSys HIV RT kit (Innovagen). In parallel, cytotoxicity of the samples was evaluated in uninfected PHA-P-activated PBMC by a methyltetrazolium salt (MTT) assay on day 7. Experiments were performed in triplicate and 50, 70 and 90% effective doses and cytotoxic doses were calculated using SoftMaxPro software.
PHA-P-activated PBMC were treated with each of the drug under investigation (1:5 dilutions between 0.5 μM and […]) and infected with 100 TCID50 of either HIV-1-LAI (X4 tropic) or /Ba-L (R5 tropic) strain. Molecules and viruses were maintained throughout the culture, and cell supernatants were collected at day 7 post-infection from which reverse transcriptase activity was quantified. Experiments were performed in triplicate and 50, 70 and 90% effective doses (ED), in nM (±S.D.) were calculated using SoftMaxPro software.

clinical HIV-1 isolates = assay: Antiviral assay on the series of clinical HIV-1 isolates, summary in text (Example 4); type: cell-based; conditions: primary strains of Table 5
From the text: The antiviral assay was extended to a series of more clinically relevant primary strains, including 92UG029, SF162, 92US723, 96USHIPS4, 92HT599 and 98IN017.
Phytohemagglutinin (PHA)-P-activated PBMCs were infected either with the reference lymphotropic HIV-1/LAI strain (Barre-Sinoussi, et al., 1983) or with the reference macrophage-tropic HIV-1/Ba-L strain (Gartner, et al., 1986). These viruses were amplified in vitro with PHA-P-activated blood mononuclear cells. Viral stocks (including clinical isolates) were titrated using PHA-P-activated PBMCs, and 50% tissue culture infectious doses (TCID50) were calculated using Kärber's formula (Kärber, 1931). Viruses (125 TCID50) were incubated for 30 min with five concentrations (1:5 dilutions between 500 nM and 320 pM) of each of the molecules to be tested and added to 150 000 PBMCs (m.o.i.˜0.001). […] Viral replication was measured by quantifying reverse transcriptase (RT) activity in the cell culture supernatants using the Lenti RT Activity Kit (Cavisi) and AZT was used as reference anti-HIV-1 molecule. In parallel, cytotoxicity was evaluated on day 7 in uninfected PHA-P-activated PBMC using a colorimetric methyl-tetrazolium salt (MTS/PMS) assay (Promega). Experiments were performed in triplicate and 50, 70 and 90% effective doses (ED) were calculated using SoftMaxPro software.

CC(C)C[C@@H]1NC(=O)CNC(=O)[C@H](CC(C)C)NC(=O)[C@H](CO)NC(=O)[C@H](CO)NC(=O)[C@@H]2CSSC[C@@H](C(=O)N[C@H](C(N)=O)C(C)C)NC(=O)[C@H](C)NC(=O)[C@@H]3CSSC[C@H](NC(=O)[C@H](CCCCN)NC(=O)[C@H](Cc4c[nH]cn4)NC(=O)[C@H](CC(C)C)NC(=O)[C@H](CC(N)=O)NC(=O)CCSSC[C@H](NC(=O)[C@H](CCCNC(=N)N)NC(=O)CNC(=O)[C@H](CC(C)C)NC1=O)C(=O)N[C@@H](C)C(=O)NCC(=O)N[C@@H](CO)C(=O)N[C@@H](Cc1ccc(-c4ccccc4)cc1)C(=O)N3)C(=O)N[C@@H](CCC(N)=O)C(=O)N[C@@H](CC(C)C)C(=O)N[C@@H](CCCNC(=N)N)C(=O)N2 [mCD4, reference compound]
binding of gp120 MN in complex with the compound to heparin-coated surface (gp120 MN (X4)): not inhibited
pEC50 (SHIVsf162p3; 1st experiment, read-out: EC50 1st experiment): 5.34
pEC50 (SHIVsf162p3; 2nd experiment, read-out: EC50 2nd experiment): 5.21
mAb17b binding to gp120 YU2(R5)-coated surface pretreated with the compound (gp120 YU2 (R5)): binds and unmasks the CD4i epitope
binding of gp120 YU2 in complex with the compound to mAb17b-coated surface (gp120 YU2 (R5)): enhanced
ED70 VIH-1-LAI(X4) Average (X4-tropic HIV-1-LAI): 242 nM
ED90 VIH-1-LAI(X4) Average (X4-tropic HIV-1-LAI): 317 nM
antiviral activity against clinical isolates (in words) (clinical HIV-1 isolates): only poorly active or inactive

CC(C)C[C@@H]1NC(=O)CNC(=O)[C@H](CC(C)C)NC(=O)[C@H](CO)NC(=O)[C@H](CO)NC(=O)[C@@H]2CSSC[C@@H](C(=O)N[C@H](C(N)=O)C(C)C)NC(=O)[C@H](C)NC(=O)[C@@H]3CSSC[C@H](NC(=O)[C@H](CCCCNC(=O)CCOCCOCCNC(=O)CCN4C(=O)CC(SCCC(=O)NCCCC(=O)N[C@@H](CO)C(=O)N[C@@H](Cc5ccc(OS(=O)(=O)O)cc5)C(=O)N[C@@H](CC(=O)O)C(=O)N[C@@H](Cc5ccc(OS(=O)(=O)O)cc5)C(=O)N[C@@H](CO)C(=O)N[C@@H](Cc5ccc(OS(=O)(=O)O)cc5)C(=O)N[C@@H](CC(=O)O)C(=O)N[C@@H](Cc5ccc(OS(=O)(=O)O)cc5)C(=O)N[C@@H](CO)C(=O)N[C@@H](Cc5ccc(OS(=O)(=O)O)cc5)C(=O)N[C@@H](CC(=O)O)C(=O)N[C@@H](Cc5ccc(OS(=O)(=O)O)cc5)C(=O)N[C@@H](CO)C(=O)O)C4=O)NC(=O)[C@H](Cc4c[nH]cn4)NC(=O)[C@H](CC(C)C)NC(=O)[C@H](CC(N)=O)NC(=O)CCSSC[C@H](NC(=O)[C@H](CCCNC(=N)N)NC(=O)CNC(=O)[C@H](CC(C)C)NC1=O)C(=O)N[C@@H](C)C(=O)NCC(=O)N[C@@H](CO)C(=O)N[C@@H](Cc1ccc(-c4ccccc4)cc1)C(=O)N3)C(=O)N[C@@H](CCC(N)=O)C(=O)N[C@@H](CC(C)C)C(=O)N[C@@H](CCCNC(=N)N)C(=O)N2 (stereo partly shown) [mCD4-P3YSO3]
binding of gp120 MN in complex with the compound to heparin-coated surface (gp120 MN (X4)): only partially inhibited
mAb17b binding to gp120 YU2(R5)-coated surface pretreated with the compound (gp120 YU2 (R5)): fully inhibits
binding of gp120 YU2 in complex with the compound to mAb17b-coated surface (gp120 YU2 (R5)): fully inhibited
ED70 VIH-1-LAI(X4) Average (X4-tropic HIV-1-LAI): 0.6 nM
ED90 VIH-1-LAI(X4) Average (X4-tropic HIV-1-LAI): 1.1 nM

pEC50: −log10 of the molar value. Where two headings read alike, the source gives them in different places.
